According to US20190391160, “METHODS AND COMPOSITIONS FOR MODIFYING CYSTIC FIBROSIS TRANSMEMBRANE CONDUCTANCE REGULATOR ACTIVITY” (published 2019):

Target: human ΔF508-CFTR, P13569

B1: recombinant human non-pancreatic secreted phospholipase A2 group IIA (protein)
chain: NLVNFHRMIKLTTGKEAALSYGFYGCHCGVGGRGSPKDATDRCCVTHDCCYKRLEKRGCGTKFLSYKFSNSGSRITCAKQDSCRSQLCECDKAAATCFARNKTTYNKKYQYYSNKHCRGSTPRC
Q: How did the “ΔF508CFTR Cl- current (IcAMP), two-electrode voltage clamp in X. laevis oocytes” value turn out when B1 was run?
A: Its value is “did not increase DF508CFTR Cl- current but even reduced its activity”.
